PSTVd loop 6 mutant pool in Nicotiana benthamiana

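A pool of all variants was put on leaves of three Nicotiana benthamiana plants. Samples came from the inoculated region at 5 days, the leaf margin at 10 and upper systemic leaves at 12.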

Region: loop 6 of PSTVd (intermediate strain), upper and lower strand joined, each 5' to 3', the first 5 letters being the upper strand, closing pairs included. Wild type: UGACCGCGAG. Varied positions (N): UNNNCGNNNG.

Values are reads per thousand in the sample; higher means more abundant, 0 means not found. Each site shows the three plants. "Pool" is the share in the plasmid pool used as inoculum, on the same scale. The inoculated region was read from the minus strand, the other sites from the plus strand.

sequence,pool,inoculated region,leaf margin,systemic leaves
UAGUCGGUUG,0.235,0.0695 / 0.108 / 0.0922,0 / 0 / 0,0 / 0 / 0
UGCACGGUAG,0.235,0.765 / 0.575 / 0.461,0.0828 / 0.252 / 0.0464,0.0180 / 0.0606 / 0.0205
UCUGCGGUUG,0.353,0.139 / 0.180 / 0.0369,0 / 0 / 0,0 / 0 / 0
UGCUCGUUGG,0.261,0.0869 / 0.0719 / 0.129,0 / 0 / 0.0232,0 / 0 / 0
UUUGCGUCAG,0.235,0.104 / 0.0719 / 0.0922,0.0276 / 0 / 0,0 / 0 / 0
UAUCCGUGCG,0.222,0.0869 / 0.108 / 0.0553,0.0276 / 0 / 0,0 / 0 / 0
UGGGCGCGUG,0.105,0.139 / 0.0898 / 0.0922,0 / 0 / 0,0 / 0 / 0
UCGACGAACG,0.222,0.191 / 0.0898 / 0.111,0 / 0 / 0.0232,0 / 0 / 0
UUGGCGUACG,0.405,0.0695 / 0.0539 / 0.0553,0.0552 / 0 / 0.0232,0 / 0 / 0.0205
UCUUCGAAGG,0.222,0.104 / 0.0539 / 0.0738,0 / 0 / 0,0 / 0 / 0
UUUUCGCAUG,0.0654,0.0695 / 0.0539 / 0.166,0 / 0 / 0.0232,0 / 0 / 0
UCCCCGCGUG,0.196,0.382 / 0.251 / 0.295,0.0276 / 1.44 / 0.232,0.0180 / 0 / 0.0205
UGGGCGAUGG,0.235,0.0174 / 0.0898 / 0.0369,0 / 0 / 0,0 / 0 / 0
UUAGCGAGAG,0.261,0.174 / 0.126 / 0.129,0 / 0 / 0.0232,0 / 0 / 0.0205
UAGACGGGGG,0.105,0.0869 / 0.108 / 0.0184,0.0276 / 0 / 0,0 / 0 / 0
UCUGCGCGGG,0.196,0.104 / 0.0719 / 0.0553,0.0552 / 0 / 0,0 / 0 / 0
UACGCGUCAG,0.235,0.556 / 0.611 / 0.516,0.0828 / 0.101 / 0.0696,0 / 0 / 0
UAUGCGGCCG,0.118,0.0869 / 0.0719 / 0.0184,0.0276 / 0 / 0,0 / 0 / 0
UGCCCGGAGG,0.105,0.0869 / 0.0719 / 0.0738,0.0276 / 0 / 0,0 / 0 / 0
UCGUCGCGAG,0.209,0.122 / 0.126 / 0.184,0.0828 / 0.303 / 0,0 / 0 / 0.0410
UAAGCGGCGG,0.157,0.0869 / 0.0180 / 0.0369,0 / 0 / 0,0 / 0 / 0
UACGCGCCCG,0.170,0.0695 / 0.0539 / 0.0369,0 / 0 / 0.0232,0 / 0 / 0
UAACCGACGG,0.353,0 / 0.0719 / 0.111,0 / 0 / 0,0 / 0 / 0
UCGGAGCAUG,0.0131,0 / 0 / 0,0 / 0 / 0,0 / 0 / 0
UAGGCGGAUG,0.314,0.174 / 0.0180 / 0.129,0.0828 / 0 / 0,0 / 0 / 0
UGACCGAAGG,0.0261,0.104 / 0.0719 / 0.0369,0.221 / 0 / 0.0232,0 / 0 / 0
UUCACGUCAG,0.379,0.0348 / 0.126 / 0.111,0 / 0 / 0,0 / 0 / 0
UUGACGAUUG,0.301,0.0869 / 0.0719 / 0.148,0.0276 / 0 / 0,0 / 0 / 0
GGACCGCUUG,0.0261,0.0521 / 0.0359 / 0.0369,0 / 0 / 0,0 / 0 / 0
UCCUCGCUAG,0.0915,0.0869 / 0.0539 / 0.0553,0 / 0 / 0,0 / 0 / 0
UGUGCGAUUG,0.431,0.0348 / 0.162 / 0.0553,0 / 0 / 0,0 / 0 / 0
AGACCGCGAG,0.0131,0.0174 / 0.144 / 0.111,0.0552 / 1.69 / 0,0.216 / 0.707 / 0.451
UUCACGACCG,0.366,0.156 / 0.0719 / 0.0553,0 / 0 / 0.0232,0 / 0 / 0
UUCUCGGCGG,0.353,0.174 / 0.180 / 0.111,0 / 0 / 0,0 / 0 / 0
UUUGCGGUGG,0.248,0.0869 / 0.126 / 0.148,0 / 0 / 0,0 / 0 / 0
UGAACGAGAG,0.183,0.712 / 0.898 / 1.11,0.166 / 0.328 / 0.162,0.0180 / 0.0808 / 0.144
UAUGCGAAGG,0.209,0.0695 / 0.0359 / 0.0738,0 / 0 / 0,0 / 0 / 0
UCACCGUGGG,0.131,0.139 / 0.108 / 0.111,0 / 0 / 0.0696,0 / 0 / 0
UUGUCGGUAG,0.288,0.0695 / 0.0539 / 0.111,0 / 0 / 0,0 / 0 / 0
UUGCCGUAGG,0.261,0.191 / 0.108 / 0.0922,0 / 0 / 0.0232,0 / 0 / 0
UACACGGCGG,0.222,0.104 / 0.0898 / 0.129,0 / 0 / 0,0 / 0 / 0
UAUUCGAGAG,0.222,0.209 / 0.0719 / 0.0738,0 / 0 / 0,0 / 0 / 0
UUGACGAACG,0.327,0.0695 / 0.0719 / 0.0369,0.0276 / 0 / 0,0 / 0 / 0
UGGUCGAAAG,0.183,0.104 / 0.0898 / 0.0553,0 / 0 / 0,0 / 0 / 0
UUGGCGCCUG,0.523,0.174 / 0.126 / 0.0369,0.0276 / 0 / 0,0 / 0 / 0
UACGCUGUCC,0.0261,0 / 0 / 0,0 / 0 / 0,0 / 0 / 0
UAGUCGGCCG,0.157,0.139 / 0.0539 / 0.0369,0.0276 / 0 / 0,0 / 0 / 0
UGGACGCGGG,0.275,0.122 / 0.0359 / 0.0553,0.0276 / 0 / 0.0464,0 / 0 / 0
UGCGCGAAAG,0.275,0.0521 / 0.0719 / 0.129,0 / 0 / 0,0 / 0 / 0

The first 6 entries again:

| sequence | pool | inoculated region | leaf margin | systemic leaves |
|---|---|---|---|---|
| UAGUCGGUUG | 0.235 | 0.0695 / 0.108 / 0.0922 | 0 / 0 / 0 | 0 / 0 / 0 |
| UGCACGGUAG | 0.235 | 0.765 / 0.575 / 0.461 | 0.0828 / 0.252 / 0.0464 | 0.0180 / 0.0606 / 0.0205 |
| UCUGCGGUUG | 0.353 | 0.139 / 0.180 / 0.0369 | 0 / 0 / 0 | 0 / 0 / 0 |
| UGCUCGUUGG | 0.261 | 0.0869 / 0.0719 / 0.129 | 0 / 0 / 0.0232 | 0 / 0 / 0 |
| UUUGCGUCAG | 0.235 | 0.104 / 0.0719 / 0.0922 | 0.0276 / 0 / 0 | 0 / 0 / 0 |
| UAUCCGUGCG | 0.222 | 0.0869 / 0.108 / 0.0553 | 0.0276 / 0 / 0 | 0 / 0 / 0 |

Samples held 36,220 to 57,551 reads, so the smallest values rest on one or two reads. The authors trace changes outside the varied positions to PCR and sequencing errors or to mutation in the plant; presence does not show that a variant is infectious alone. Wild type was 20.7 per thousand in the pool and the most common sequence in every sample (inoculated region 195, 198, 203; leaf margin 629, 591, 734; systemic leaves 942, 870, 868).

Values reported by Wu et al. 2024 (doi:10.1371/journal.ppat.1012142).